Anti-infective test results gathered from many reports (values: NIAID ChemDB through PubChem).

All rows: target-level tests; organism: HIV-1; target: Reverse transcriptase

Blank or dashed fields: not listed here.

compound,measure,strain,method,changes,result
Cn1c(-c2ccc(Cl)c(Cl)c2)cs/c1=N\N=C1\C(=O)Nc2ccccc21,IC50,,RT activity / nucleotide incorporation / fluorescence,,50 µM
CCNc1cccnc1N1CCN(C(=O)c2cccc3c2NCC3)CC1,IC50,,nucleotide incorporation,,~100 µM
N=C(N)c1ccc(-c2cc3ccc(C(=N)N)cc3[nH]2)cc1,IC50,,nucleotide incorporation,,250 µM
O=C(CSc1nnnn1-c1ccc(C2CC2)cc1Cl)Nc1ccc(-c2ccc(OCCN3CCCC3)cc2)c(F)c1Cl,IC50,WT,PicoGreen / fluorescence,,<1 µM
CCN1c2ncc(CCOc3ccc(C(=O)O)c4c3CCN(S(C)(=O)=O)C4)cc2C(=O)N(C)c2cccnc21,IC50,,nucleotide incorporation / radiometric,RT-V106A,>1 µM
CCN1c2ncc(CCc3cccc4[nH]cc(SC)c34)cc2C(=O)N(C)c2ccc(Cl)nc21,IC50,WT,nucleotide incorporation / radiometric,,>1 µM
CC(C)(O)C#Cc1ccc(NC(=O)CSc2nnnn2-c2cc(Cl)c(C3CC3)cc2Cl)c(Cl)c1,IC50,WT,PicoGreen / fluorescence,,<1 µM
CCN1c2ncc(CCc3ccc4c(SC)c[nH]c4c3)cc2C(=O)N(C)c2ccc(Cl)nc21,IC50,WT,nucleotide incorporation / radiometric,,<1 µM
CN1CCN(c2ccc3nc(-c4ccc5nc(-c6ccc(O)cc6)[nH]c5c4)[nH]c3c2)CC1,IC50,,nucleotide incorporation,,220 µM
CCN1c2ncc(CCOc3ccc(CC(=O)O)c4ccccc34)cc2C(=O)N(C)c2cccnc21,IC50,WT,nucleotide incorporation / radiometric,,<0.1 µM
CC(C)[C@H](NC(=O)c1ccc(NC(=O)CSc2nnc(Br)n2-c2ccc(C3CC3)c3ccccc23)c(Cl)c1)C(=O)O,IC50,,nucleotide incorporation / radiometric,RT-Y188L,>0.1 µM
CCN1c2ncc(CCc3ccc4cc[nH]c4c3)cc2C(=O)N(C)c2ccc(Cl)nc21,IC50,,nucleotide incorporation / radiometric,RT-Y181C,<1 µM
CCN1c2ncc(CCOc3ccc(/C=C(\C)C(=O)O)c4ccccc34)cc2C(=O)Nc2c(C)cc(Cl)nc21,IC50,,nucleotide incorporation / radiometric,RT-Y188L,>1 µM
CC(C)(N)C#Cc1ccc(NC(=O)CSc2nnnn2-c2cc(C(F)(F)F)ccc2Cl)c(Cl)c1,IC50,,PicoGreen / fluorescence,RT-K103 Y181C,<1 µM
CCNc1ccccc1N1CCN(C(=O)c2cc3cc(OC)ccc3[nH]2)CC1,IC50,,nucleotide incorporation,,<100 µM
CC(C)(C#Cc1ccc(NC(=O)CSc2nnnn2-c2ccc(C3CC3)cc2Cl)c(Cl)c1F)OCCO[n+]1cccc([O-])c1,IC50,,PicoGreen / fluorescence,RT-K103 Y181C,<1 µM
CC(C)(C)Nc1cccnc1N1CCN(C(=O)c2cc3ccccc3[nH]2)CC1,IC50,,nucleotide incorporation,,<100 µM
CC(C)(C)c1ccc(-n2nnnc2SCC(=O)Nc2ccc(C(=O)NCc3cccnc3)cc2Cl)c(Cl)c1,IC50,WT,PicoGreen / fluorescence,,<1 µM
Cn1c(-c2ccc(Cl)cc2)cs/c1=N\N=C1\C(=O)Nc2ccc(Cl)cc21,IC50,,RT activity / nucleotide incorporation / fluorescence,,39 µM
Cn1cc(NC(=O)c2cc(NC(=O)c3cc(NC(=O)CCCCCCCCCCCCCCCCCCCCCCC(=O)Nc4cc(C(=O)Nc5cc(C(=O)Nc6cc(C(=O)NCCC(=N)N)n(C)c6)n(C)c5)n(C)c4)cn3C)cn2C)cc1C(=O)NCCC(=N)N,IC50,,nucleotide incorporation,,>500 µM
CC(C)Nc1cccnc1N1CCN(C(=O)c2[nH]c3c(/C(O)=C/C(=O)C(=O)O)cccc3c2Cl)CC1,IC50,,nucleotide incorporation,,>100 µM
CC(C)Nc1cccnc1N(C)CCCCN(C)C(=O)c1cc2ccccc2[nH]1,IC50,,nucleotide incorporation,,<100 µM
CC(C)(C#Cc1ccc(NC(=O)CSc2nnnn2-c2ccc(C3CC3)cc2Cl)c(Cl)c1)NCC(N)=O,IC50,,PicoGreen / fluorescence,RT-K103 Y181C,<1 µM
O=C(O)CNC(=O)c1ccc(NC(=O)CSc2nnc(Br)n2-c2ccc(C3CC3)c3ccccc23)c(Cl)c1,IC50,,nucleotide incorporation / radiometric,RT-Y188L,0.05–0.1 µM
CCN1c2ncc(CC(O)c3ccncc3)cc2C(=O)N(C)c2ccc(Cl)nc21,IC50,,nucleotide incorporation / radiometric,RT-Y181C,<1 µM
CC(C)Nc1cncnc1N1CCN(C(=O)c2cc3cc(F)ccc3[nH]2)CC1,IC50,,nucleotide incorporation,,<100 µM
O=C(CSc1nnc(Br)n1-c1ccc(C2CC2)c2ccccc12)Nc1ccc(C(=O)N[C@@H](Cc2ccc(O)cc2)C(=O)O)cc1Cl,IC50,,nucleotide incorporation / radiometric,RT-Y181C,<0.05 µM
CCNc1cccnc1N1CCN(Cc2cc(C)c(OC)c(C)c2)CC1,IC50,,nucleotide incorporation,,<100 µM
CCN1c2ncc(CCOc3ccc(C(=O)O)c4c3CCN(C(=O)OC)C4)cc2C(=O)N(C)c2cccnc21,IC50,WT,nucleotide incorporation / radiometric,,<0.1 µM
CC(C)(C#Cc1ccc(NC(=O)CSc2nnnn2-c2cc(C(F)(F)F)ccc2Cl)c(Cl)c1)OCCOc1ccncc1,IC50,WT,PicoGreen / fluorescence,,<1 µM
CCNc1cccnc1N1CCN(C(=O)c2cc3cc(Cl)ccc3[nH]2)CC1,IC50,,nucleotide incorporation,,<100 µM
Cn1c(-c2ccc(F)cc2F)cs/c1=N\N=C1\C(=O)Nc2ccc(Cl)cc21,IC50,,RT activity / nucleotide incorporation / fluorescence,,54 µM
CCN1c2ncc(CCc3ccncc3)cc2C(=O)N(C)c2ccc(Cl)nc21,IC50,IIIB,RT activity,RT-Y181C,0.12 µM
CCNc1cccnc1N1CCN(CCc2cc(C)c(O)c(C)c2)CC1,IC50,,nucleotide incorporation,,>100 µM
O=C(CSc1nnnn1-c1ccc(C2CC2)cc1Cl)Nc1ccc(S(=O)(=O)Nc2ccncc2)cc1Cl,IC50,,PicoGreen / fluorescence,RT-K103 Y181C,<1 µM
Cn1cc(NC(=O)c2nc(NC(=O)/C=C/C(=O)Nc3cn(C)c(C(=O)Nc4cn(C)c(C(=O)NCCC(=N)N)n4)n3)cn2C)nc1C(=O)NCCC(=N)N,IC50,,nucleotide incorporation,,~150 µM
CC(C)(C)c1cc(Cl)c(-n2nnnc2SCC(=O)Nc2ccc(-c3ccc(CC(=O)O)cc3)cc2Cl)c(Cl)c1,IC50,,PicoGreen / fluorescence,RT-K103 Y181C,<1 µM
Cn1c(-c2ccc(Cl)cc2)cs/c1=N\N=C1\C(=O)Nc2ccccc21,IC50,,RT activity / nucleotide incorporation / fluorescence,,24 µM
Cc1occc1C(=S)Nc1ccc(Cl)c(/C=N/OC(C)(C)C)c1,IC50,,nucleotide incorporation / radiometric,RT-Y181C,37 µM
CN(C)c1ccc(CNC(=O)C(C)(C)C#Cc2ccc(NC(=O)CSc3nnnn3-c3ccc(C4CC4)cc3Cl)c(Cl)c2)cc1,IC50,,PicoGreen / fluorescence,RT-K103 Y181C,<1 µM
Cc1cc(C)cc(S(=O)(=O)c2c(C(=O)NC(C)C(N)=O)[nH]c3ccc(Cl)cc23)c1,IC50,,nucleotide incorporation / radiometric,RT-Y181I,0.13 µM
CCNc1cccnc1N1CCN(C(=O)c2cc3cc(C(=O)OCc4ccccc4)ccc3[nH]2)CC1,IC50,,nucleotide incorporation,,<100 µM
O=C(CSc1nnc(Br)n1-c1ccc(C2CC2)c2ccccc12)Nc1ccc(C(=O)O)cc1Cl,IC50,,nucleotide incorporation / radiometric,RT-Y181C,<0.05 µM
CCN1c2ncc(CCc3ccccc3)cc2C(=O)N(C)c2ccc(Cl)nc21,IC50,IIIB,RT activity,RT-K103N,0.05 µM
Cn1c(-c2ccc(Cl)cc2Cl)cs/c1=N\N=C1\C(=O)Nc2ccccc21,IC50,,RT activity / nucleotide incorporation / fluorescence,,19.6 µM
COc1ccc2[nH]c(C(=O)N3CCN(c4ncccc4NC(C)(C)C)CC3)cc2c1,IC50,,nucleotide incorporation,,<100 µM
CCN1c2ncc(CCOc3ccc(C(C)C(=O)O)c4ccccc34)cc2C(=O)N(C)c2cccnc21,IC50,WT,nucleotide incorporation / radiometric,,<0.1 µM
Cc1c(C(=O)N2CCN(c3ncccc3NC(C)C)CC2)[nH]c2ccccc12,IC50,,nucleotide incorporation,,<100 µM
Cc1cc(C)cc(S(=O)(=O)c2c(C(N)=O)[nH]c3ccc(Cl)cc23)c1,Ki,,nucleotide incorporation / radiometric,,0.0003 µM
CC(C)(O)C#Cc1ccc(NC(=O)CSc2nnnn2-c2cc(C#N)ccc2Cl)c(Cl)c1,IC50,WT,PicoGreen / fluorescence,,<1 µM
CCN1c2ncc(CCOc3ccc(CC(=O)NN)c4ccccc34)cc2C(=O)N(C)c2ccc(Cl)nc21,IC50,,nucleotide incorporation / radiometric,RT-Y188L,0.1–1 µM
CC(C)c1ccc(-n2nnnc2SCC(=O)Nc2ccc(-c3ccc(OCCN4CCCC4)cc3)cc2Cl)c(Br)c1,IC50,,PicoGreen / fluorescence,RT-K103 Y181C,<1 µM
Nc1nc(Nc2ccc(Cl)c(Cl)c2)nn1S(=O)(=O)c1ccc2ccccc2c1,IC50,A17,luciferase / RT activity,Y181C/K103N,>1000 µM
Cn1c(-c2cccc([N+](=O)[O-])c2)cs/c1=N\N=C1\C(=O)Nc2ccc(Cl)cc21,IC50,,RT activity / nucleotide incorporation / fluorescence,,60 µM
N#Cc1ccc(Nc2nc(N)n(S(=O)(=O)c3ccc4ccccc4c3)n2)cc1Cl,IC50,A17,luciferase / RT activity,Y181C/K103N,570 µM
CC(C)(COc1ccc(NC(=O)CSc2nnnn2-c2ccc(C3CC3)cc2Cl)c(Cl)c1)C(=O)O,IC50,,PicoGreen / fluorescence,RT-K103 Y181C,<1 µM
CCOC(=O)CNC(=O)c1ccc(NC(=O)CSc2nnc(Br)n2-c2ccc(C3CC3)c3ccccc23)c(Cl)c1,IC50,,nucleotide incorporation / radiometric,RT-Y181C,0.05–0.1 µM
CN(C)S(=O)(=O)c1ccc(NC(=O)CSc2nnnn2-c2ccc(C(C)(C)C)cc2Cl)c(Cl)c1,IC50,,PicoGreen / fluorescence,RT-K103 Y181C,<1 µM
Cc1cc(C(=O)O)ccc1NC(=O)CSc1nnc(Br)n1-c1ccc(C2CC2)c2ccccc12,IC50,,nucleotide incorporation / radiometric,,<0.05 µM
C=CCO/N=C/c1cc(NC(=S)c2ccoc2C)ccc1Cl,IC50,,nucleotide incorporation / radiometric,RT-L100I,>50 µM
CC(C)(C)c1ccc(-n2nnnc2SCC(=O)Nc2ccc(-c3ccc(C(=O)O)s3)cc2Cl)c(Cl)c1,IC50,WT,PicoGreen / fluorescence,,<1 µM
Cc1cc(S(N)(=O)=O)ccc1NC(=O)COc1ccccc1C(=O)c1cc(Cl)cc(C#N)c1,IC50,NNRTI-resistant,fluorescence,RT-Y181C,0.0121 µM
CC(C)(C)c1ccc(-n2nnnc2SCC(=O)Nc2ccc(C(=O)Nc3ccccc3O)cc2Cl)c(Cl)c1,IC50,,PicoGreen / fluorescence,RT-K103 Y181C,<1 µM
CC(C)Nc1cccnc1N1CCN(C(=O)c2cc3cc(F)ccc3[nH]2)CC1,IC50,,nucleotide incorporation,,<100 µM
CC(C)(C)c1ccc(-n2nnnc2SCC(=O)Nc2ccc(OCC(=O)NCc3ccc(O)c(O)c3)cc2Cl)c(Cl)c1,IC50,,PicoGreen / fluorescence,RT-K103 Y181C,<1 µM
CCNc1cccnc1N1CCN(Cc2cc(C(C)C)c(O)c(C(C)C)c2)CC1,IC50,,nucleotide incorporation,,>100 µM
CC(C)(C)c1ccc(-n2nnnc2SCC(=O)Nc2ccc(C(=O)NCc3ccc(N)cc3)cc2Cl)c(Cl)c1,IC50,,PicoGreen / fluorescence,RT-K103 Y181C,<1 µM
CC(C)Nc1cccnc1N1CCN(C(=O)c2cccc3cc[nH]c23)CC1,IC50,,nucleotide incorporation,,<100 µM
COC(=O)Cc1ccc(-c2ccc(NC(=O)CSc3nnnn3-c3ccc(C)cc3Cl)c([N+](=O)[O-])c2)cc1,IC50,WT,PicoGreen / fluorescence,,<1 µM
CCc1ccc(-n2c(SCC(=O)Nc3ccc(C(=O)O)cc3Cl)nnc2C(F)(F)F)c2ccccc12,IC50,,nucleotide incorporation / radiometric,RT-Y188L,>0.1 µM
CC(C)(C#Cc1ccc(NC(=O)CSc2nnnn2-c2ccc(C3CC3)cc2Cl)c(Cl)c1F)C(=O)O,IC50,WT,PicoGreen / fluorescence,,<1 µM
Cc1occc1C(=S)Nc1ccc(Cl)c(C(=O)OCC2CC2)c1,IC50,,nucleotide incorporation / radiometric,RT-P236L,12 µM

ICn is the concentration giving n% inhibition. Two numbers with a dash give a range or band. Rows are shuffled and stem from different studies.